Data published in PMC7460216 (Marine Drugs, 2020).

System: panel of human tumour cell lines (NCI 60 cell-line panel)
Conditions: preliminary single dose (10 μM) testing
Excerpt: Protocols of testing at the DTP, NCI have been described elsewhere.

Q: What does the source list for `O=C1C2=C3C4=[N+](CCc5c[nH]c1c54)C1(O)CCC3(CCN2)CC1` [Compound 7, Discorhabdin C Hydrogenation Product]?
A: delta of mean growth: 37.53; range of growth: 59.64
